A mixed list of measured activities; the numbers were collected in NIAID ChemDB.

Common to all: enzyme or target tests; agent: HIV-1; target: Reverse transcriptase; read-out: IC50

Neighbouring rows are from separate reports.

structure,strain,read by,mutations,result
COc1c2ccoc2c(S(=O)(=O)Oc2ccc([N+](=O)[O-])cc2)c2oc(C)cc(=O)c12,,RT activity / radiometric,,0.0000089 µM
Cc1nnc(SCC(=O)Nc2ccc(OCC(=O)N3CCC(C(=O)O)CC3)cc2Cl)n1-c1ccc(C2CC2)cc1Cl,WT,PicoGreen / fluorescence,,<1 µM
CCN1c2ncc(CCOc3ccc(-c4ccc(C(C)C(=O)O)cc4)cc3C)cc2C(=O)N(C)c2cccnc21,IIIB,nucleotide incorporation / radiometric,RT-K103N Y181C,<0.05 µM
COc1c(-c2cc(C)on2)c(O)c(S(=O)(=O)Oc2ccc([N+](=O)[O-])cc2)c2occc12,,RT activity / radiometric,,0.0000059 µM
Cc1ccc(-n2nnnc2SCC(=O)Nc2ccc(-c3cccc(CC(=O)O)c3)cc2Cl)c(Cl)c1,,PicoGreen / fluorescence,RT-K103 Y181C,<1 µM
Cc1cc(C)c(S(=O)(=O)Oc2ccc3cccc(S(=O)(=O)O)c3c2)c(C)c1S(=O)(=O)Oc1ccc2cccc(S(=O)(=O)O)c2c1,,RT activity,,<50 µM
CCCN1C(=O)c2cc(Cl)nnc2N(C2CC2)c2ccccc21,,,,<330 µM
Cc1cn([C@H]2C[C@H](N=[N+]=[N-])[C@@H](COP(=O)(O)C(F)(F)P(=O)(O)OP(=O)(O)c3ccccc3)O2)c(=O)[nH]c1=O,,fluorescence,,>0.5 µM
CC(C)c1cnc(C2C=C(c3ccccc3O)N=C(N)S2)cn1,,RT activity / ELISA / absorbance,,67.21 µM
CC(C)(C#Cc1ccc(NC(=O)CSc2nnnn2-c2cc(C3CC3)ccc2Cl)c(Cl)c1)NC(=O)CN1CCNCC1,WT,PicoGreen / fluorescence,,<1 µM
CCCN1c2ccc(C)cc2N(C)C(=O)c2cc(Cl)nnc21,,,,>330 µM
CCN1c2ncc(CCOc3ccc(C(=O)N(C)Cc4ccc(C(=O)O)cc4)cc3C)cc2C(=O)N(C)c2cccnc21,IIIB,nucleotide incorporation / radiometric,RT-K103N Y181C,0.05–0.1 µM
CN1CCC[C@H]1C(=O)NC(C)(C)C#Cc1ccc(NC(=O)CSc2nnnn2-c2ccc(C3CC3)cc2Cl)c(Cl)c1,,PicoGreen / fluorescence,RT-K103 Y181C,<1 µM
C=CCN1C(=O)c2cc(Cl)nnc2N(C2CC2)c2ccccc21,,,,<330 µM
Cn1c(-c2ccc(F)cc2)cs/c1=N\N=C1\C(=O)Nc2ccccc21,,RT activity / nucleotide incorporation / fluorescence,,30 µM
CCCCCCCCCCCCCCCC(=O)Nc1ccc(S(=O)(=O)O)c2ccccc12,,RT activity,,>50 µM
Cc1cn([C@H]2C[C@H](F)C(COP(=O)([O-])OP(=O)([O-])OC[C@H]3O[C@@H](n4cc(C)c(=O)[nH]c4=S)C[C@@H]3F)O2)c(=S)[nH]c1=O,,RT activity / ELISA,,0.2 µM
CC(C)(C#Cc1ccc(NC(=O)CSc2nnnn2-c2cc(C(F)(F)F)cc(C3CC3)c2Cl)c(Cl)c1)OCCN1CCC(F)(F)C1,,PicoGreen / fluorescence,RT-K103 Y181C,<1 µM
O=C(Oc1cc(S(=O)(=O)O)cc2cc(S(=O)(=O)O)ccc12)c1ccc(-c2ccc(C(=O)Oc3cc(S(=O)(=O)O)cc4cc(S(=O)(=O)O)ccc34)cc2)cc1,,RT activity,,<50 µM
Cc1ccccc1NC(=O)CSc1ncnn1-c1ccc(Cl)cc1Cl,,absorbance,,>471 µM
CC(C)=CCOc1cc(NC(=S)c2ccoc2C)ccc1Cl,,,RT-P236L,1.1 µM
CC(C)(C#Cc1ccc(NC(=O)CSc2nnnn2-c2cc(C(C)(C)C)cc(Br)c2Cl)c(Cl)c1)NC(=O)CN1CCNCC1,,PicoGreen / fluorescence,RT-K103 Y181C,<1 µM
C=C(C)[C@@H]1CCC2[C@]3(CC[C@]4(C)[C@@H]([C@H](C)CC/C=C(/C)C(=O)O)CC[C@@]24C)C[C@]13CCC(=O)O,,RNase H,,>424.9 µM
CN(C)c1ccc(CNC(=O)C(C)(C)C#Cc2ccc(NC(=O)CSc3nnnn3-c3ccc(C4CC4)cc3Cl)c(Cl)c2)cc1,WT,PicoGreen / fluorescence,,<1 µM
O=C(O)c1cc(O)c2c(c1)[C@@H]([C@H]1c3cc(C(=O)O)cc(O)c3C(=O)c3c(O[C@@H]4O[C@H](CO)[C@@H](O)[C@H](O)[C@H]4O)cccc31)c1cccc(O[C@@H]3O[C@H](CO)[C@@H](O)[C@H](O)[C@H]3O)c1C2=O,,RNase H / radiometric,Q475A,24.8 µM
CCNc1cccnc1N1CCN(C(=O)c2cc3cc(Cl)ccc3[nH]2)CC1,,nucleotide incorporation,,<100 µM
COc1ccc(-c2cs/c(=N\N=C3\C(=O)Nc4ccccc43)n2C)cc1,,RT activity / nucleotide incorporation / fluorescence,,17.9 µM
Cc1cc(S(N)(=O)=O)ccc1NC(=O)COc1ccccc1C(=O)c1cc(Cl)cc(C#N)c1,NNRTI-resistant,fluorescence,RT-K103N,0.0106 µM
COc1c2ccoc2c(S(=O)(=O)Oc2ccc(F)cc2)c2oc(C)cc(=O)c12,,RT activity / radiometric,,0.0000088 µM
Cc1cccc2[nH]c(C(=O)N3CCN(c4ncccc4NC(C)C)CC3)cc12,,nucleotide incorporation,,<100 µM
Cc1cc(C)c(S(=O)(=O)Nc2cc(C(=O)O)c(O)c(S(=O)(=O)O)c2)c(C)c1S(=O)(=O)Nc1cc(C(=O)O)c(O)c(S(=O)(=O)O)c1,,RT activity,,<50 µM
O=C(COc1ccc(NC(=O)CSc2nnnn2-c2ccc(C3CC3)cc2Cl)c(Cl)c1)NCCc1cc[n+]([O-])cc1,WT,PicoGreen / fluorescence,,<1 µM
CC(C)=CCN1Cc2cccc3[nH]c(=S)n(c23)C[C@@H]1C,LAI,radiometric,,2.1 µM
CCN1c2ncc(CCOc3ccc(C(=O)Nc4ccc(CC(=O)O)cc4)cc3C)cc2C(=O)Nc2c(C)ccnc21,IIIB,nucleotide incorporation / radiometric,,<0.05 µM
CC(C)(C#Cc1ccc(NC(=O)CSc2nnnn2-c2ccc(C3CC3)cc2Cl)c(Cl)c1)NC(=O)C1CC1,,PicoGreen / fluorescence,RT-K103 Y181C,<1 µM
CC(C)Nc1cccnc1OCCOC(=O)c1cc2ccccc2[nH]1,,nucleotide incorporation,,<100 µM
NC(=O)c1[nH]c2ccc(Br)cc2c1S(=O)(=O)N1CCCC1,BH10,RT activity / radiometric,Y181C,59 µM
CC(C)(C#Cc1ccc(NC(=O)CSc2nnnn2-c2cc(C(F)(F)F)ccc2Cl)c(Cl)c1F)OCCOc1ccncc1,,PicoGreen / fluorescence,RT-K103 Y181C,<1 µM
CCCCCCCCCCCCCCCC(=O)Nc1ccc(S(=O)(=O)O)c2cccc(S(=O)(=O)O)c12,,RT activity,,<50 µM
COc1ccc2cc(C(=O)N3CCN(c4ncccc4NC(C)C)CC3)[nH]c2c1,,nucleotide incorporation,,<100 µM
O=C(O)Cc1ccc(-c2ccc(NC(=O)CSc3nnnn3-c3ccc(C4CC4)cc3Cl)c(Cl)c2)cc1,,PicoGreen / fluorescence,RT-K103 Y181C,<1 µM
CSCSc1nc(Cc2ccccc2)c(C)c(=O)[nH]1,,scintillation proximity,,28.8 µM
CCCN1C(=O)c2cc(Cl)nnc2N(CCC)c2ccc(C)cc21,,,,>330 µM
CC(C)(C)c1ccc(-n2nnnc2SCC(=O)Nc2ccc(NC(=O)c3ccc(O)cc3)cc2Cl)c(Cl)c1,,PicoGreen / fluorescence,RT-K103 Y181C,<1 µM
Cc1ccc(-c2cs/c(=N\N=C3\C(=O)Nc4ccccc43)n2C)cc1,,RT activity / nucleotide incorporation / fluorescence,,29 µM
CC(C)=CCOc1cc(NC(=S)c2ccsc2C)ccc1Cl,,,,0.2 µM
NCCCNC(=O)c1ccc(NC(=O)CSC(=O)N2CCCc3cc(Cl)cc(Cl)c32)c(Cl)c1,,scintillation proximity,WT,0.002 µM
CCOCn1c(Cc2ccccc2)c(C(C)C)c(=O)[nH]c1=O,,scintillation proximity,,0.8 µM
Cc1ccc(-n2nnnc2SCC(=O)Nc2ccc(-c3ccc(CC(=O)NS(C)(=O)=O)cc3)cc2Cl)c(Cl)c1,,PicoGreen / fluorescence,RT-K103 Y181C,<1 µM
CCN1C(=O)c2cc(Cl)nnc2N(CC)c2ccccc21,,,,>330 µM
O=c1[nH]c(CCc2ccccc2)cc(Nc2ccccc2)c1Br,,absorbance,,12.03 µM
COc1ccc(C2=CC(c3cnc(C(C)C)cn3)SC(N)=N2)cc1,,RT activity / ELISA / absorbance,,>100 µM
O=C(O)c1cc(NS(=O)(=O)c2cccc3c(S(=O)(=O)Nc4cc(C(=O)O)c(O)c(S(=O)(=O)O)c4)cccc23)cc(S(=O)(=O)O)c1O,,RT activity,,~50 µM
Cn1cc(NC(=O)COc2ccc(NC(=O)CSc3nnnn3-c3ccc(C(C)(C)C)cc3Cl)c(Cl)c2)cc1C(=O)O,WT,PicoGreen / fluorescence,,<1 µM
COc1c(-c2cc(C)n(C)n2)c(O)c(S(=O)(=O)Oc2ccc([N+](=O)[O-])cc2)c2occc12,,RT activity / radiometric,,0.0000037 µM
Cc1cc(S(N)(=O)=O)ccc1NC(=O)COc1ccc(Cl)cc1C(=O)c1cc(F)cc(C(F)(F)F)c1,IIIB,fluorescence,,0.003 µM
CCCN1C(=O)c2ccnnc2N(C2CC2)c2ccccc21,,,,~33 µM
CC(C)(C#Cc1ccc(NC(=O)CSc2nnnn2-c2ccc(C3CC3)cc2Cl)c(Cl)c1F)OCCN1CCCC1,,PicoGreen / fluorescence,RT-K103 Y181C,<1 µM
CCCN1C(=O)c2ccnnc2N(C2CC2)c2ccc(C)cc21,,,,>330 µM
CC(C)c1cnc(C2C=C(c3cccc(O)c3)N=C(N)S2)cn1,,RT activity / ELISA / absorbance,,72.63 µM
Cn1c(-c2ccc(Br)cc2)cs/c1=N\N=C1\C(=O)Nc2ccc(Cl)cc21,,RT activity / nucleotide incorporation / fluorescence,,34 µM
CC(C)(C#Cc1ccc(NC(=O)CSc2nnnn2-c2ccc(C3CC3)cc2Cl)c(Cl)c1)NC(=O)c1cnccn1,WT,PicoGreen / fluorescence,,<1 µM
Cn1c(-c2ccc(-c3ccccc3)cc2)cs/c1=N\N=C1\C(=O)Nc2ccccc21,,RT activity / nucleotide incorporation / fluorescence,,35 µM
O=C(CSc1nnnn1-c1ccc(C2CC2)cc1Cl)Nc1ccc(C(=O)NCc2ccc[n+]([O-])c2)cc1Cl,WT,PicoGreen / fluorescence,,<1 µM
CCN1c2ncc(CCOc3ccc(-c4cnccc4C)cc3C)cc2C(=O)N(C)c2cccnc21,IIIB,nucleotide incorporation / radiometric,RT-K103N Y181C,<0.05 µM
CC(=O)NC(C)(C)C#Cc1ccc(NC(=O)CSc2nnnn2-c2cc(C(F)(F)F)ccc2Cl)c(Cl)c1,WT,PicoGreen / fluorescence,,<1 µM
COc1c(C(=O)/C=C(/C)Nc2ccc([N+](=O)[O-])cc2)c(O)c(S(=O)(=O)Oc2ccc(F)cc2)c2occc12,,RT activity / radiometric,,0.0000065 µM
Cc1ccc(-n2nnnc2SCC(=O)Nc2ccc(-c3coc(C)n3)cc2Cl)c(Cl)c1,,PicoGreen / fluorescence,RT-K103 Y181C,<1 µM
CC(C)c1cnc(C2C=C(c3ccccc3Cl)N=C(N)S2)cn1,,RT activity / ELISA / absorbance,,31.44 µM

4 of the rows above, restated:

structure	strain	read by	mutations	result
CC(C)c1cnc(C2C=C(c3cccc(O)c3)N=C(N)S2)cn1		RT activity / ELISA / absorbance		72.63 µM
NCCCNC(=O)c1ccc(NC(=O)CSC(=O)N2CCCc3cc(Cl)cc(Cl)c32)c(Cl)c1		scintillation proximity	WT	0.002 µM
CCN1C(=O)c2cc(Cl)nnc2N(CC)c2ccccc21				>330 µM
Cc1cc(C)c(S(=O)(=O)Oc2ccc3cccc(S(=O)(=O)O)c3c2)c(C)c1S(=O)(=O)Oc1ccc2cccc(S(=O)(=O)O)c2c1		RT activity		<50 µM

Two numbers with a dash give a range or band. An empty or dashed field is not shown. ICn is the concentration giving n% inhibition.